Results of unrelated studies side by side (data: NIAID ChemDB).

Shared fields: whole-cell or culture tests; organism: Herpes simplex virus 2; endpoint: inhibition

Rows are shuffled and stem from different studies. An empty or dashed field is not shown. Percent inhibition refers to the dose given; in toxicity tests it is the harm to the cells. For "inactive" no cut-off is given.

O=C(O)C(O)c1ccccc1 ; method: plaque count ; cells: CaSki ; tested at: 1 µg/mL ; strain or isolate: G ; value: 54%
NC(=Nc1ccc(Cc2ccc(N=C(N)c3ccccc3)cc2)cc1)c1ccccc1 ; method: plaque count ; cells: VERO ; tested at: 1 µM ; value: <50%
CC(C)CCCC(COS(=O)(=O)O)C1CCC2C3CC=C4C[C@H](O)[C@@H](OS(=O)(=O)O)CC4(C)C3CCC12C ; method: plaque count ; cells: VERO ; tested at: 10 µg/mL ; strain or isolate: G ; value: 16.6%
CCC(=O)C(CCCCCCOc1ccc(OC)cc1Cl)C(=O)CC ; method: plaque count ; cells: VERO ; tested at: 5 µg/mL ; strain or isolate: 333 ; value: 72%
C/C=C/c1cn([C@H]2C[C@H](O)[C@@H](CO)O2)c(=O)[nH]c1=O ; method: plaque count ; cells: VERO ; tested at: 100 µM ; strain or isolate: B4327 UR2 ; value: <0%
CSC(=NCCc1ccccc1)Nc1ccc(Oc2ccc(/C=C(/NCCc3ccccc3)SC)cc2)cc1 ; method: plaque count ; cells: VERO ; tested at: 1 µM ; value: <50%
O=c1ccn([C@H]2C[C@H](O)[C@@H](CO)O2)c(=O)[nH]1 ; method: virus yield ; cells: HeLa ; tested at: 50 µM ; value: 80%
CC/C=C/C/C=C/C/C=C/CCCCCCCC(=O)OCC(CO[C@@H]1O[C@H](CO)[C@H](O)[C@H](O)[C@H]1O)OC(=O)CCCCCCC/C=C\C/C=C\CCCCC ; method: plaque count ; cells: VERO ; tested at: 50 µg/mL ; strain or isolate: 186 ; value: 90%
Nc1nc(=O)n([C@@H]2O[C@H](CO)[C@@H](O)[C@@H]2F)cc1I ; method: cytopathic effect ; cells: VERO ; tested at: 0.1 µg/mL ; strain or isolate: K979 ; value: ≥25%
Nc1nc2c(ncn2COC(CO)CO)c(=O)[nH]1 ; method: plaque count ; cells: WI-38 ; tested at: 2 µM ; strain or isolate: 333 ; value: 90%
O=c1[nH]c(=O)n([C@H]2C[C@H](O)[C@@H](CBr)O2)cc1CCBr ; method: cytopathic effect ; cells: HEP-2 ; tested at: 100 µg/mL ; value: ≥25%
O=c1[nH]c(=O)n([C@H]2C[C@H](O)[C@@H](CO)O2)cc1/C=C/Br ; method: plaque count ; cells: HELA BU ; tested at: 10 µM ; strain or isolate: 333 ; value: 98%
CCCCCCCCCC(=O)OCC(CO[C@@H]1O[C@H](CO)[C@@H](O)[C@H](O)[C@H]1O)OC(=O)CCCCCCCCC ; method: plaque count ; cells: VERO ; tested at: 50 µg/mL ; strain or isolate: 186 ; value: inactive
CC(=O)OC(C)C1=C(O)C2=C(C(=O)C1=O)[C@@]1(C)CCCC(C)(C)[C@@H]1C[C@H]2O ; method: plaque count ; cells: VERO ; tested at: 0.2 µg/mL ; value: 60%
Cc1cn([C@@H]2O[C@H](CO)[C@@H](O)[C@@H]2F)c(=O)[nH]c1=O ; method: virus yield ; cells: VERO ; tested at: 0.1 µM ; strain or isolate: G ; value: 51%
O=c1[nH]c(=O)n([C@H]2C[C@H](O)[C@@H](CO)O2)cc1CCI ; method: cytopathic effect ; cells: HEP-2 ; tested at: 30 µg/mL ; value: ≥25%
O=c1ccn([C@@H]2O[C@H](CO)[C@@H](O)[C@@H]2F)c(=O)[nH]1 ; method: virus yield ; cells: VERO ; tested at: 0.5 µM ; strain or isolate: G ; value: 87%
O=c1[nH]c(=O)n([C@@H]2C[C@H](O)[C@@H](CO)O2)cc1CCCl ; method: cytopathic effect ; cells: HEP-2 ; tested at: 100 µg/mL ; value: ≥25%
CCc1cn([C@H]2C[C@H](O)[C@@H](CO)O2)c(=O)[nH]c1=O ; method: plaque count ; cells: HeLa ; tested at: 10 µM ; strain or isolate: 333 ; value: >99%
O=c1[nH]c(=O)n([C@H]2C[C@H](O)[C@@H](CO)O2)cc1/C=C/Br ; method: cytopathic effect ; cells: VERO ; tested at: 30 µg/mL ; strain or isolate: K979 ; value: ≥25%
O=c1[nH]c(=O)n([C@H]2C[C@H](O)[C@@H](CO)O2)cc1CCCCl ; method: cytopathic effect ; cells: HEP-2 ; tested at: 30 µg/mL ; value: ≥25%
O=S(=O)(c1ccc(OCc2ccc(Cl)cc2)cc1)c1ccc(OCc2ccc(Cl)cc2)cc1 ; method: plaque count ; cells: VERO ; tested at: 10 µM ; value: >50%
O=c1ccn(N2C[C@H](CO)[C@H]2CO)c(=O)[nH]1 ; method: plaque count ; cells: VERO ; tested at: 10 µg/mL ; value: 0%
CC(C)=CCCC(CO)C1CCC2C3CC=C4C[C@H](O)[C@@H](O)CC4(C)C3CCC12C ; method: plaque count ; cells: VERO ; tested at: 40 µg/mL ; strain or isolate: G ; value: 67.8%
CN1C(=O)NC(=O)N([C@H]2C[C@H](O)[C@@H](CO)O2)C1(C)C ; method: plaque count ; cells: VERO ; tested at: 25 µM ; strain or isolate: 35D ; value: 0%
CSc1cnc(=O)n([C@H]2C[C@H](O)[C@@H](CO)O2)c1 ; method: plaque count ; cells: HeLa ; tested at: 100 µM ; strain or isolate: 333 ; value: 0%
O=c1[nH]c(=O)n([C@@H]2O[C@H](CO)[C@@H](O)[C@@H]2F)cc1I ; method: cytopathic effect ; cells: PRK ; tested at: 0.02 µg/mL ; strain or isolate: G ; value: ≥25%
O=C1C2=C(C(=O)c3ccccc31)C1Oc3cc4c(cc3C1CO2)OCCO4 ; method: plaque count ; cells: VERO ; tested at: 0.4 µg/mL ; strain or isolate: G ; value: 90%
CCCCCCCCCCCCCCCCCC(=O)OCC(CO[C@@H]1O[C@H](CO)[C@@H](O)[C@H](O)[C@H]1O)OC(=O)CCCCCCCCCCCCCCCCC ; method: plaque count ; cells: VERO ; tested at: 50 µg/mL ; strain or isolate: 186 ; value: inactive
C/C=C/c1cn([C@@H]2O[C@H](CO)[C@@H](O)[C@@H]2O)c(=O)[nH]c1=O ; method: plaque count ; cells: VERO ; tested at: 250 µM ; strain or isolate: B4327 UR2 ; value: 10%
CC(C)=CCC[C@@H](COS(=O)(=O)O)C1CCC2C3CC[C@H]4C[C@H](OS(=O)(=O)O)[C@@H](O)CC4(C)C3CCC21C ; method: plaque count ; cells: VERO ; tested at: 40 µg/mL ; strain or isolate: G ; value: 98.2%
S=C(NCCc1ccccc1)Nc1ccc(Oc2ccc(NC(=S)NCCc3ccccc3)cc2)cc1 ; method: plaque count ; cells: VERO ; tested at: 10 µM ; value: <50%
CCc1cn([C@@H]2O[C@H](CO)[C@@H](O)[C@@H]2F)c(=O)[nH]c1=O ; method: plaque count ; cells: VERO ; tested at: 0.91 µM ; strain or isolate: G ; value: 90%
CCCCCCCCCCCC(=O)OC[C@H](CO[C@@H]1O[C@H](CO)[C@@H](O)[C@H](O)[C@H]1O)OC(=O)CCCCCCCCCCC ; method: plaque count ; cells: VERO ; tested at: 50 µg/mL ; strain or isolate: 186 ; value: 50%
C/C=C/c1cn([C@H]2C[C@H](O)[C@@H](CO)O2)c(=O)[nH]c1=O ; method: plaque count ; cells: HELA BU ; tested at: 10 µM ; strain or isolate: 333 ; value: 96%
O=c1[nH]c(=O)n([C@@H]2O[C@H](CO)[C@@H](O)[C@@H]2F)cc1I ; method: virus yield ; cells: VERO ; tested at: 0.5 µM ; strain or isolate: G ; value: 88%
O=C(O)C(O)c1ccccc1 ; method: plaque count ; cells: CaSki Cells ; tested at: 26.4 µg/mL ; strain or isolate: Strain 333 ; value: 99.9%
C[C@H](CCC(=O)NCCCCN(CCCNC(=O)CC[C@@H](C)[C@H]1CC[C@H]2[C@@H]3[C@H](OS(=O)(=O)O)C[C@@H]4C[C@H](OS(=O)(=O)O)CC[C@]4(C)[C@H]3C[C@H](OS(=O)(=O)O)[C@]12C)C(=O)CC[C@@H](C)[C@H]1CC[C@H]2[C@@H]3[C@H](OS(=O)(=O)O)C[C@@H]4C[C@H](OS(=O)(=O)O)CC[C@]4(C)[C@H]3C[C@H](OS(=O)(=O)O)[C@]12C)[C@H]1CC[C@H]2[C@@H]3[C@H](OS(=O)(=O)O)C[C@@H]4C[C@H](OS(=O)(=O)O)CC[C@]4(C)[C@H]3C[C@H](OS(=O)(=O)O)[C@]12C ; method: plaque count ; cells: CaSki ; tested at: 10 µg/mL ; strain or isolate: G ; value: 37%
Nc1ncnc2c1ncn2[C@@H]1O[C@H](CO)[C@@H](O)[C@@H]1O ; method: plaque count ; cells: VERO ; tested at: 25 µM ; strain or isolate: G ; value: 0%

A second listing of 4 rows from above:

compound | method | cells | tested at | strain or isolate | value
O=c1[nH]c(=O)n([C@H]2C[C@H](O)[C@@H](CBr)O2)cc1CCBr | cytopathic effect | HEP-2 | 100 µg/mL |  | ≥25%
O=c1[nH]c(=O)n([C@H]2C[C@H](O)[C@@H](CO)O2)cc1/C=C/Br | plaque count | HELA BU | 10 µM | 333 | 98%
Nc1nc2c(ncn2COC(CO)CO)c(=O)[nH]1 | plaque count | WI-38 | 2 µM | 333 | 90%
O=c1[nH]c(=O)n([C@@H]2C[C@H](O)[C@@H](CO)O2)cc1CCCl | cytopathic effect | HEP-2 | 100 µg/mL |  | ≥25%